Data as given in PubChem BioAssay AID1224833 (University of Georgia, 2016)
Purpose: 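Host factors restraining rotavirus as candidate antiviral genes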 (primary screen). Cell system: monkey MA104 kidney cells. Reagents: siRNA pool against human genes, 50 nM. Timing: 48 h knock-down before infection; read 24 h after infection. Challenge: infection with rotavirus strain RV3 two days after transfection; infectious dose for this stage not given. Detection: 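Rotavirus antigen per well by fluorescent immunoassay, normalised to non-targeting control wells on each plate and given as a standard z-score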. Scale: z-score vs non-targeting control: higher = more rotavirus replication than with non-targeting control. Active means: In these data the active calls have z-score vs non-targeting control at about -1 or lower, or at about 1 or higher. Meaning of the calls: active = z-score beyond 1 either way; inactive = z-score within 1 of zero.
The deposit covers about 12,000 reagents; below is a random part of them. About 5,600 of all reagents (46%) were called active. 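Active calls cover z-scores past 1 in both directions, so they include lowered as well as raised rotavirus replication.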 Entries without a mark were called inactive.

With ATXN7 (GeneID 6314), what was measured?
z-score vs non-targeting control: -0.437

For CYTH3 (GeneID 9265), how do the results read?
z-score vs non-targeting control: -1.5 (active)

For C16orf82 (GeneID 162083), what was measured?
z-score vs non-targeting control: -0.529

How did the screen score BACE2 (GeneID 25825)?
z-score vs non-targeting control: -0.691

With LRATD2 (GeneID 157638), what was measured?
z-score vs non-targeting control: -0.0257

For BECN1 (GeneID 8678), what does the deposit list?
z-score vs non-targeting control: 0.966

What is on record for B3GALNT1 (GeneID 8706)?
z-score vs non-targeting control: 1.5 (active)

Which result is listed for AP2A1 (GeneID 160)?
z-score vs non-targeting control: -1.4 (active)

What is on record for H1-7 (GeneID 341567)?
z-score vs non-targeting control: 0.414

With DAO (GeneID 1610), how do the results read?
z-score vs non-targeting control: 1.41 (active)

For RRP8 (GeneID 23378), how do the results read?
z-score vs non-targeting control: -0.445

With RAB3B (GeneID 5865), what does the deposit list?
z-score vs non-targeting control: -1.43 (active)

What did the screen give for PRDM6 (GeneID 93166)?
z-score vs non-targeting control: 0.837

What did the screen give for DUSP28 (GeneID 285193)?
z-score vs non-targeting control: -1.11 (active)

What is on record for SLC30A5 (GeneID 64924)?
z-score vs non-targeting control: -1.01 (active)

What did the screen give for RNASE1 (GeneID 6035)?
z-score vs non-targeting control: -1.59 (active)

With USP25 (GeneID 29761), how do the results read?
z-score vs non-targeting control: -0.904

What did the screen give for PSMD3 (GeneID 5709)?
z-score vs non-targeting control: 1.26 (active)

For RASA3 (GeneID 22821), how do the results read?
z-score vs non-targeting control: -1.57 (active)

Part of the list above, reformatted:
gene symbol,z-score vs non-targeting control
RRP8 (GeneID 23378),-0.445
RAB3B (GeneID 5865),-1.43 (active)

Further records follow:
With SPAG9 (GeneID 9043), what does the deposit list?
z-score vs non-targeting control: -0.323

What is on record for ZNF304 (GeneID 57343)?
z-score vs non-targeting control: -0.176

How did the screen score PRAMEF1 (GeneID 65121)?
z-score vs non-targeting control: 1.16 (active)

What did the screen give for DPYSL3 (GeneID 1809)?
z-score vs non-targeting control: 1.02 (active)

Which result is listed for SESN2 (GeneID 83667)?
z-score vs non-targeting control: 0.63

With SLC6A17 (GeneID 388662), how do the results read?
z-score vs non-targeting control: 0.146

For SPG21 (GeneID 51324), what was measured?
z-score vs non-targeting control: 0.883

Which result is listed for CORO2A (GeneID 7464)?
z-score vs non-targeting control: -0.279

With PFN3 (GeneID 345456), what does the deposit list?
z-score vs non-targeting control: -1.4 (active)

How did the screen score TFEC (GeneID 22797)?
z-score vs non-targeting control: 0.786

With MXRA7 (GeneID 439921), what was measured?
z-score vs non-targeting control: -0.13

For C8A (GeneID 731), how do the results read?
z-score vs non-targeting control: -0.0536

For SON (GeneID 6651), how do the results read?
z-score vs non-targeting control: -2.99 (active)
